Measured values from several laboratories, pooled; numbers as filed in NIAID ChemDB.

Common to all: growth or infection tests; agent: Rhinovirus; cells: HeLa; measure: EC50

ECn is the concentration giving n% inhibition of infection, replication or growth. Conditions beyond the fields shown may differ between rows.

| compound | strain or isolate | read by | result |
|---|---|---|---|
| C#CCOc1cc(OC)ccc1-c1cc(N(CC)CC)no1 | Serotype 9 (group B) | cytopathic effect | >40 µM |
| Cc1cc(OCCCc2ccc(CO)nn2)cc(C)c1-c1noc(C(F)F)n1 | serotypes 3 4 5 9 16 18 38 66 75 67 | cytopathic effect | 0.15 µg/mL |
| N#Cc1ccc2c(c1)CCC(c1ccccc1)O2 | Serotype 1B | cytopathic effect | 8 µM |
| O=C(Oc1c(-c2ccc(Cl)c(Cl)c2)oc2ccccc2c1=O)c1cc(O)c(O)c(O)c1 | Serotype 14 | plaque count | >25 µM |
| CSc1ccc(C(=O)CCCCOc2ccc(C3=NCCO3)cc2)cc1 | Serotype 2 | cytopathic effect | >271 µM |
| N#Cc1ccc(C2=Cc3ccccc3OC2)cc1 | Serotype 1B | cytopathic effect | >40 µM |
| COc1cc(C(=O)Oc2c(-c3ccc(Cl)c(Cl)c3)oc3ccccc3c2=O)cc(OC)c1O | Serotype 14 | plaque count | >1.56 µM |
| Cc1ccc(C(=O)CCCCOc2ccc(C3=NC(C)(C)CO3)cc2)s1 | TYPE 14 | cytopathic effect | 0.81 µM |
| COc1cc(C(=O)Oc2c(-c3ccc(Cl)c(Cl)c3)oc3ccccc3c2=O)ccc1OC(C)=O | Serotype 1B | plaque count | >1.56 µM |
| CCc1nc(-c2cc(C)c(OCCCc3cc(COC)no3)c(C)c2)no1 | Serotype 30 | cytopathic effect | 0.033 µg/mL |
| Cc1ccc(C(=O)CCCCCCOc2ccc(C3=NCCO3)cc2)s1 | TYPE 2 | cytopathic effect | 10.8 µM |
| Cc1cc(CCCCCCCOc2ccc(C3=NCCO3)cc2)on1 | Serotype 14 | cytopathic effect | 1.8 µM |
| COc1ccc(OCCCCCCn2ccnc2)c(Cl)c1 | TYPE 45 | plaque count | 29.1 µM |
| Cc1cc(OCCCc2ccc(Br)nn2)cc(C)c1-c1noc(C(F)F)n1 | serotypes 3 4 5 9 16 18 38 66 75 67 | cytopathic effect | 0.02 µg/mL |
| CS(=O)(=O)c1ccc(Cc2ccccc2)nc1 | TYPE 64 | cytopathic effect | >10 µg/mL |
| CC(=O)c1ccc(CCCOc2cc(C)c(-c3noc(C(F)F)n3)c(C)c2)nn1 | serotypes 3 4 5 9 16 18 38 66 75 67 | cytopathic effect | 0.04 µg/mL |
| N=C(N)c1ccc2c(c1)C=C(c1ccccc1)CO2 | Serotype 1B | cytopathic effect | >40 µM |
| CS(=O)(=O)c1ccc(Oc2ccc(C(=O)c3ccccc3)cc2)nc1 | TYPE 68 | cytopathic effect | >10 µg/mL |
| CCOC(=O)c1ccc(OCCC2CCN(c3ccc(C)nn3)CC2)cc1 | Serotype 64 | cytopathic effect | <0.1 µg/mL |
| Cc1ccc(C(=O)CCCCOc2ccc(C3=NCCO3)cc2)cc1 | Serotype 14 | cytopathic effect | 5.6 µM |
| Cc1cc(CCCCCOc2c(Cl)cc(C3=NCCO3)cc2Cl)on1 | TYPE 67 | plaque count | 0.11 µg/mL |
| CCS(=O)(=O)c1cccnc1Oc1ccc(C(=O)c2ccccc2)cc1 | TYPE 1A | cytopathic effect | >10 µg/mL |
| N=C(N)c1ccc2c(c1)CC(c1ccccc1)CO2 | Serotype 1B | plaque count | 8 µM |
| COc1ccc(C(=O)CCCCOc2ccc(C#N)cc2)cc1 | Serotype 2 | cytopathic effect | >253 µM |
| N#Cc1cc([N+](=O)[O-])ccc1Oc1ccc(Cl)c(Cl)c1 | TYPE 1A | cytopathic effect | 0.1 µg/mL |
| Cc1cc(CCCCCCCOc2ccc(C3=NCCO3)cc2)on1 | TYPE 2 | cytopathic effect | 2.35 µM |
| CCOC(=O)c1ccc(OCCCCC(=O)c2ccc(SC)cc2)cc1 | Serotype 2 | cytopathic effect | 11.7 µM |
| Cc1ccc(C(=O)CCCCCCOc2ccc(C3=NCCO3)cc2Cl)s1 | TYPE 2 | cytopathic effect | 0.47 µM |
| Cc1nc(-c2cc(C)c(OCCCc3cc(C(F)(F)F)no3)c(C)c2)no1 | Serotype 41 | cytopathic effect | 0.536 µg/mL |
| CS(=O)(=O)c1ccc(Cc2ccc(Cl)c(Cl)c2)nc1 | HTYPE NK'S | cytopathic effect | >10 µg/mL |
| Cc1ccc(C(=O)CCCCCCOc2ccc(C3=N[C@@H](C)CO3)cc2)s1 | TYPE 14 | cytopathic effect | 0.26 µM |
| N=C(N)c1ccc2c(c1)CCC(c1ccccc1)O2 | Serotype 1B | plaque count | 8 µM |
| COC(=O)c1cc(CCCOc2c(C)cc(-c3noc(C)n3)cc2C)on1 | Serotype 6 | cytopathic effect | 0.136 µg/mL |
| CS(=O)(=O)c1ccc(NCc2ccc(Br)cc2)nc1 | TYPE 2 | cytopathic effect | 6.3 µg/mL |
| CCN(CC)c1cc(-c2ccc(O)cc2O)on1 | Serotype 2 | cytopathic effect | >121 µM |
| CC(=O)c1c(-c2ccc(Cl)cc2)oc2ccccc2c1=O | Serotype 14 | plaque count | 2.12 µM |
| CS(=O)(=O)c1ccc(Cc2ccc(N)cc2)nc1 | TYPE 2 | cytopathic effect | >10 µg/mL |
| O=c1c(O)c(-c2ccc(Cl)c(Cl)c2)oc2ccccc12 | Serotype 1B | plaque count | 3.19 µM |
| COC(=O)C(Cc1ccc(OCCCCCCC(=O)c2ccc(C)s2)cc1)NC(C)=O | TYPE 14 | cytopathic effect | >83 µM |
| CCOc1cc(OC)ccc1-c1cc(N(CC)CC)no1 | Serotype 51 (group B) | cytopathic effect | 17.1 µM |
| Cc1ccc(C(=O)CCCCOc2ccc(C3=NCC(C)O3)cc2)s1 | TYPE 2 | cytopathic effect | 1.96 µM |
| COc1ccc(-c2cc(N3CCCC3)no2)c(O)c1 | Serotype 59 (group B) | cytopathic effect | 145 µM |
| CCOC(=O)c1ccc(OCCCCC(=O)c2ccc(C)cc2)cc1 | Serotype 14 | cytopathic effect | 2.6 µM |
| CS(=O)(=O)c1ccc(NCc2ccc(Cl)c(Cl)c2)nc1 | TYPE 10 | cytopathic effect | 2.5 µg/mL |
| CCN(CC)c1cc(-c2ccc(OC)cc2OC)on1 | Serotype 72 (group A) | cytopathic effect | >362 µM |

Repeating the final 5 entries:

compound | strain or isolate | read by | result
Cc1ccc(C(=O)CCCCOc2ccc(C3=NCC(C)O3)cc2)s1 | TYPE 2 | cytopathic effect | 1.96 µM
COc1ccc(-c2cc(N3CCCC3)no2)c(O)c1 | Serotype 59 (group B) | cytopathic effect | 145 µM
CCOC(=O)c1ccc(OCCCCC(=O)c2ccc(C)cc2)cc1 | Serotype 14 | cytopathic effect | 2.6 µM
CS(=O)(=O)c1ccc(NCc2ccc(Cl)c(Cl)c2)nc1 | TYPE 10 | cytopathic effect | 2.5 µg/mL
CCN(CC)c1cc(-c2ccc(OC)cc2OC)on1 | Serotype 72 (group A) | cytopathic effect | >362 µM